Experimental data: PubChem BioAssay AID1259414 (Drosophila RNAi Screening Center, 2018)
The screen tested about 24,000 reagents; shown is a random part of those with a known target gene and a result. Of all reagents, about 1,210 (5%) were called active. 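Inactive calls also include excluded dsRNAs with several or no targets, genes unexpressed in JW18, and well A1, regardless of score.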 Names joined by + are all predicted targets of the reagent. Reagent sequences are not shown.

Test: 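Host factors increasing or decreasing Wolbachia levels in cultured fly cells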 (primary screen)
Cell system: Drosophila JW18 cells infected with Wolbachia
Reagent: long dsRNA against Drosophila genes, 0.25 µg dsRNA per well of a 384-well plate
Timing: 5 days
Conditions: cells persistently infected with Wolbachia before knock-down; no added drug
Read-out: 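Automated imaging of bacterial rRNA staining divided by host cell count, reported as plate-normalised robust z-score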
Direction: Wolbachia per cell robust z: higher = more Wolbachia per host cell than the plate typical
Rule for the call: 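Hit when robust z is 1.5 or more, or -1.5 or less, in at least two of three replicates; excludes dsRNAs with several or no targets, genes not expressed in JW18 and well A1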

CG4622 [DRSC04479] → Wolbachia per cell robust z, rep 1: 0.287; Wolbachia per cell robust z, rep 2: -1.19; Wolbachia per cell robust z, rep 3: -0.694; activity call: inactive
CG11883 [DRSC06094] → Wolbachia per cell robust z, rep 1: -0.524; Wolbachia per cell robust z, rep 2: -0.569; Wolbachia per cell robust z, rep 3: -0.0927; activity call: inactive
CG11883 [DRSC41434] → Wolbachia per cell robust z, rep 1: 0.822; Wolbachia per cell robust z, rep 2: -0.764; Wolbachia per cell robust z, rep 3: -0.677; activity call: inactive
CG42529 + Vtld [DRSC10102] → Wolbachia per cell robust z, rep 1: 0.115; Wolbachia per cell robust z, rep 2: -0.251; Wolbachia per cell robust z, rep 3: 0.0165; activity call: inactive
CG9967 [DRSC00742] → Wolbachia per cell robust z, rep 1: -2.48; Wolbachia per cell robust z, rep 2: -1.28; Wolbachia per cell robust z, rep 3: -1.47; activity call: inactive
CG9967 [DRSC25344] → Wolbachia per cell robust z, rep 1: -0.379; Wolbachia per cell robust z, rep 2: -0.341; Wolbachia per cell robust z, rep 3: -1.48; activity call: inactive
CG43163 [DRSC10748] → Wolbachia per cell robust z, rep 1: 0.159; Wolbachia per cell robust z, rep 2: -1.56; Wolbachia per cell robust z, rep 3: -0.704; activity call: inactive
CG43163 [DRSC23670] → Wolbachia per cell robust z, rep 1: 1.08; Wolbachia per cell robust z, rep 2: -0.143; Wolbachia per cell robust z, rep 3: 1.15; activity call: inactive
Lamtor3 [DRSC02815] → Wolbachia per cell robust z, rep 1: -0.3; Wolbachia per cell robust z, rep 2: -0.12; Wolbachia per cell robust z, rep 3: -0.554; activity call: inactive
CG31327 [DRSC13019] → Wolbachia per cell robust z, rep 1: -2; Wolbachia per cell robust z, rep 2: -1.68; Wolbachia per cell robust z, rep 3: -1.22; activity call: inactive
E(spl)m7-HLH [DRSC16696] → Wolbachia per cell robust z, rep 1: -3.89; Wolbachia per cell robust z, rep 2: 0.631; Wolbachia per cell robust z, rep 3: 0.337; activity call: inactive
E(spl)m7-HLH [DRSC29451] → Wolbachia per cell robust z, rep 1: -0.385; Wolbachia per cell robust z, rep 2: 1.58; Wolbachia per cell robust z, rep 3: -0.289; activity call: inactive
CG13251 [DRSC11699] → Wolbachia per cell robust z, rep 1: 0.198; Wolbachia per cell robust z, rep 2: 0.282; Wolbachia per cell robust z, rep 3: 0.546; activity call: inactive
CG13251 [DRSC27385] → Wolbachia per cell robust z, rep 1: 0.182; Wolbachia per cell robust z, rep 2: 0.631; Wolbachia per cell robust z, rep 3: 0.486; activity call: inactive
CG33775 [DRSC38873] → Wolbachia per cell robust z, rep 1: 0.199; Wolbachia per cell robust z, rep 2: 0.364; Wolbachia per cell robust z, rep 3: 0.228; activity call: inactive
gammaTub23C [DRSC00820] → Wolbachia per cell robust z, rep 1: 0.107; Wolbachia per cell robust z, rep 2: 0.0104; Wolbachia per cell robust z, rep 3: -0.913; activity call: inactive
gammaTub23C [DRSC27651] → Wolbachia per cell robust z, rep 1: -0.153; Wolbachia per cell robust z, rep 2: -0.429; Wolbachia per cell robust z, rep 3: 0.155; activity call: inactive
gammaTub23C [DRSC38953] → Wolbachia per cell robust z, rep 1: 1.48; Wolbachia per cell robust z, rep 2: 0.00895; Wolbachia per cell robust z, rep 3: 0.106; activity call: inactive
Pex5 [DRSC18552] → Wolbachia per cell robust z, rep 1: 0.384; Wolbachia per cell robust z, rep 2: -0.0845; Wolbachia per cell robust z, rep 3: -0.0805; activity call: inactive
Pex5 [DRSC26136] → Wolbachia per cell robust z, rep 1: 0.342; Wolbachia per cell robust z, rep 2: -0.572; Wolbachia per cell robust z, rep 3: 0.882; activity call: inactive
Trmt61 [DRSC14888] → Wolbachia per cell robust z, rep 1: -3.95; Wolbachia per cell robust z, rep 2: -0.505; Wolbachia per cell robust z, rep 3: -3.12; activity call: active
CG42681 [DRSC41375] → Wolbachia per cell robust z, rep 1: -1.62; Wolbachia per cell robust z, rep 2: 0.777; Wolbachia per cell robust z, rep 3: 0.367; activity call: inactive
CG12692 [DRSC17881] → Wolbachia per cell robust z, rep 1: 1.23; Wolbachia per cell robust z, rep 2: 0.599; Wolbachia per cell robust z, rep 3: -0.147; activity call: inactive
mRpL42 [DRSC06235] → Wolbachia per cell robust z, rep 1: -0.136; Wolbachia per cell robust z, rep 2: 0.128; Wolbachia per cell robust z, rep 3: -3.43; activity call: inactive
ktub [DRSC04551] → Wolbachia per cell robust z, rep 1: -0.0109; Wolbachia per cell robust z, rep 2: 0.524; Wolbachia per cell robust z, rep 3: -0.561; activity call: inactive
eIF3a [DRSC12339] → Wolbachia per cell robust z, rep 1: 1.55; Wolbachia per cell robust z, rep 2: 0.0819; Wolbachia per cell robust z, rep 3: 1.25; activity call: inactive
eIF3a [DRSC28481] → Wolbachia per cell robust z, rep 1: 0.594; Wolbachia per cell robust z, rep 2: 3.8; Wolbachia per cell robust z, rep 3: 1.9; activity call: active
Csas [DRSC22390] → Wolbachia per cell robust z, rep 1: -4.08; Wolbachia per cell robust z, rep 2: -4.53; Wolbachia per cell robust z, rep 3: -2.09; activity call: inactive
BEAF-32 [DRSC05927] → Wolbachia per cell robust z, rep 1: -1.13; Wolbachia per cell robust z, rep 2: -0.165; Wolbachia per cell robust z, rep 3: 0.177; activity call: inactive
ttm2 [DRSC08268] → Wolbachia per cell robust z, rep 1: 1.07; Wolbachia per cell robust z, rep 2: -0.857; Wolbachia per cell robust z, rep 3: 1.05; activity call: inactive

Part of the list above in another layout:
Target gene | dsRNA | Wolbachia per cell robust z, rep 1 | Wolbachia per cell robust z, rep 2 | Wolbachia per cell robust z, rep 3 | activity call
CG11883 | DRSC41434 | 0.822 | -0.764 | -0.677 | inactive
CG42529 + Vtld | DRSC10102 | 0.115 | -0.251 | 0.0165 | inactive
CG9967 | DRSC00742 | -2.48 | -1.28 | -1.47 | inactive
CG9967 | DRSC25344 | -0.379 | -0.341 | -1.48 | inactive
